Anti-infective test results gathered from many reports (values: NIAID ChemDB through PubChem).

Common to all: growth or infection tests; species: HIV-1; read-out: inhibition

Percent inhibition refers to the dose given; in toxicity tests it is the harm to the cells.

compound,cells,strain or isolate,setting,changes,method,dose,result
Nc1nc2c(ncn2[C@@H]2C[C@H](CO)[C@H](O)[C@@H]2O)c(=O)[nH]1,CEM-V/MT-2 + CEM,,,,cytopathic effect,125 µg/mL,0%
O=C(O)c1c[nH]c2c(ccc3ccccc32)c1=O,HeLa,NL4-3,,,p24 / ELISA,100 µM,71%
CCCCCCCCCCCCCCCC(=O)NCC1OC(n2cnc3c(N)ncnc32)C(OP(=O)(O)OCC2OC(n3cnc4c(N)ncnc43)C(OP(=O)(O)OCC3CC(O)C(n4cnc5c(N)ncnc54)O3)C2O)C1O,SupT1 + Sup-T1,IIIB,,,syncytia,100 µM,85.1%
S=C(NCCc1ccc(Cl)cc1)Nc1nccs1,MT-4,,,,cytopathic effect / XTT,100 µg/mL,71–73%
COC(=O)c1cn2c(c1C(=O)OC)Cc1cc3c(cc1C2)OCO3,PBL,IIIB,,,p24 / ELISA,10 µM,5%
O=C(O)CCC(CCC(=O)O)(CCC(=O)O)NC(=O)CCC(CCC(=O)NC(CCC(=O)O)(CCC(=O)O)CCC(=O)O)(CCC(=O)NC(CCC(=O)O)(CCC(=O)O)CCC(=O)O)NC(=O)CCCOC(=O)C1(C(=O)OCCCC(=O)NC(CCC(=O)NC(CCC(=O)O)(CCC(=O)O)CCC(=O)O)(CCC(=O)NC(CCC(=O)O)(CCC(=O)O)CCC(=O)O)CCC(=O)NC(CCC(=O)O)(CCC(=O)O)CCC(=O)O)C2c3cc4c5c6c3-c3c(cc7c8c3C6C3c6c-5c(cc5ccc9cc(c-8c3c9c65)C7)C4)C21,PBMC,,,AZT-resistant (RT 215/41),cytopathic effect,2.75 µM,90%
C[C@@H](O)[C@H](N)C(=O)N[C@H](C(=O)N[C@@H](CC(N)=O)C(=O)N[C@@H](Cc1ccc(O)cc1)C(=O)N[C@H](C(=O)O)[C@@H](C)O)[C@@H](C)O,A3.01,LAV,,,RT activity,0.001 µM,75.7%
Nc1nc(Cl)c2ncn([C@@H]3C[C@H](CO)[C@@H](O)[C@@H]3O)c2n1,CEM-V/MT-2 + CEM,,,,cytopathic effect,125 µg/mL,0%
CCOc1ccccc1CCNC(=S)Nc1nccs1,MT-4,,,,cytopathic effect / XTT,100 µg/mL,100%
COc1ccccc1C1=CC(c2cnc(C(C)C)cn2)SC(N)=N1,TZM-bl,NL4-3,,,p24 / ELISA / antigen,10 µg/mL,17%
C[C@H]1[C@H](O)[C@@H](C)/C=C/C=C/C=C/C=C/C=C/C=C/C=C/[C@H](O[C@@H]2O[C@H](C)[C@@H](O)[C@H](N)[C@@H]2O)C[C@@H]2O[C@](O)(C[C@@H](O)C[C@@H](O)CC[C@H](O)[C@@H](O)C[C@@H](O)CC(=O)O[C@H]1C)C[C@H](O)[C@H]2C(=O)O,PBMC,93IN101 CLADE C R5 (NSI),,,p24 / RT activity,7 µM,90%
CC(C)c1cnc(C2C=C(c3ccccc3)N=C(N)S2)cn1,TZM-bl,NL4-3,,,p24 / ELISA / antigen,10 µg/mL,12%
C[C@@H](O)[C@H](NC(=O)[C@H](Cc1ccc(O)cc1)NC(=O)[C@H](CC(N)=O)NC(=O)[C@@H](NC(=O)[C@@H](N)CO)[C@@H](C)O)C(=O)O,A3.01,LAV,,,RT activity,0.001 µM,85.7%
O=C(O)C(O)c1ccccc1,U87 (CD4+ CXCR4+) + U87,IIIB,,,p24,10 µg/mL,56%
CCCCn1c(C)c(C(=O)OC)c(C(=O)OC)c1Cc1ccccc1,PBL,IIIB,,,p24 / ELISA,1 µM,11%
Nc1ccn([C@H]2CC[C@@H](CO)O2)c(=O)n1,ATH8,IIIB,,,cytopathic effect,0.1 µM,75%
S=C(NCCc1ccccc1)N1CCCCC1,MT-4,,,,cytopathic effect / XTT,1 µg/mL,0%
CCOC(=O)/C=C/c1ccc(OC(=O)CCC(=O)Oc2c(C)c(C)c3c(c2C)CC[C@@](C)(CCC[C@H](C)CCC[C@H](C)CCCC(C)C)O3)cc1,Macrophage + Monocytes/macrophages,BaL,,,,1 µM,25%
CCN(CC)CCCC(C)Nc1ccnc2cc(Cl)ccc12,U-937,,,,p24,100 µM,65.83%
NCCSSCCN,Macrophage,BaL,,,p24,200 µM,100%
O=C(O)c1c[nH]c2ccccc2c1=O,HeLa,NL4-3,,,p24 / ELISA,100 µM,<10%
O=C(NCCc1ccccc1)Nc1nc2ccccc2s1,MT-4,,,,RT activity,1 µg/mL,77%
CC(=O)C1=CN(C(=O)OCC(C)C)C=CC1C#N,MOLT-3,IIIB,,,syncytia,50 µM,0%
CCN(C(=O)[C@H](Cc1ccccc1)NC(=O)Cc1cccc2ccccc12)c1ccccc1,,NL4-3,,,fluorescence,2 µM,53%
Cc1c(C(=O)O)c(C(=O)c2ccccc2F)c(C)n1C,PBL,IIIB,,,p24 / ELISA,10 µM,8%
CN(C(=O)[C@H](Cc1ccccc1)NC(=O)Cc1cccc2ccccc12)c1ccc(Cl)cc1,,NL4-3,,,fluorescence,20 µM,100%
COc1cc(N=Nc2cc(S(=O)(=O)O)cc3cc(S(=O)(=O)O)cc(O)c23)c(C)cc1NC(=O)Nc1cc(C)c(N=Nc2cc(S(=O)(=O)O)cc3cc(S(=O)(=O)O)cc(O)c23)cc1OC,PBL,LAV-BR,,,p24 / ELISA,50 µM,86%
CCCCCCCCCC(O)CC(=O)O,HeLa37,,,,antigen,70.8 µg/mL,90%
COC(=O)Cc1[nH]cc(-c2ccccc2)c1C(=O)OC,PBL,IIIB,,,p24 / ELISA,10 µM,14%
C=C(C)[C@@H]1CC[C@]2(C(=O)NCCCCCCCC(=O)N[C@@H](CC(C)C)[C@@H](O)CC(=O)O)CC[C@]3(C)[C@H](CC[C@@H]4[C@@]5(C)CC[C@H](O)C(C)(C)[C@@H]5CC[C@]43C)[C@@H]12,HeLa P4 + HeLa,LAI,,,β-galactosidase,10 µM,>99%
CC(=O)C1=CC=CN(C(=O)Oc2ccccc2)C1C#N,MOLT-3,IIIB,,,syncytia,50 µM,0%
OCCCCCCOc1ccc(-c2ccccc2)cc1,JM,GB8,,,p24,15 µg/mL,93%
CC(C)c1cnc(C2C=C(c3ccccc3O)N=C(N)S2)cn1,TZM-bl,NL4-3,,,p24 / ELISA / antigen,10 µg/mL,53%
Nc1ncnc2c1ncn2COCCOP(=O)(O)O[C@@H]1C[C@@H](COP(=O)(O)O[C@@H]2C[C@@H](COP(=O)(O)O[C@@H]3C[C@@H](CO)O[C@H]3n3cnc4c(NCc5ccccc5)ncnc43)O[C@H]2n2cnc3c(N)ncnc32)O[C@H]1n1cnc2c(N)ncnc21,SupT1 + Sup-T1,,,,RT activity,100 µM,60%
Nc1ncnc2c1ncn2[C@@H](C=O)O[C@@H](C=O)COP(=O)(O)OP(=O)(O)OP(=O)(O)O,Macrophage,BaL,,,p24 / antigen,100 µM,80%
CCCCOC(=O)N1C=CC(C#N)C(C(C)=O)=C1,MOLT-3,IIIB,,,syncytia,50 µM,0%
CC(C)c1cnc(C2C=C(c3ccc(O)cc3)N=C(N)S2)cn1,TZM-bl,NL4-3,,,p24 / ELISA / antigen,10 µg/mL,55%
O=C(O)c1cn(Cc2ccccc2)c2c(ccc3ccccc32)c1=O,HeLa,NL4-3,,,p24 / ELISA,100 µM,<10%
Nc1nc2c(nnn2[C@@H]2C[C@H](CO)[C@H](O)[C@@H]2O)c(=O)[nH]1,CEM-V/MT-2 + CEM,,,,cytopathic effect,125 µg/mL,0%
O=C(NCCc1ccccc1)Nc1nc2ccc(Cl)cc2s1,MT-4,,,,RT activity,10 µg/mL,51%
Cc1ccc(N(C)C(=O)[C@H](Cc2ccccc2)NC(=O)Cc2ccc3ccccc3c2)cc1,,NL4-3,,,fluorescence,20 µM,99%
O=P(O)(O)OP(=O)(O)OP(=O)(O)OP(=O)(O)OP(=O)(O)OP(=O)(O)OP(=O)(O)OP(=O)(O)OP(=O)(O)OP(=O)(O)OP(=O)(O)OP(=O)(O)OP(=O)(O)OP(=O)(O)OP(=O)(O)O,H9,IIIB,,,p24,100 µg/mL,30%
CC(C)(C)NC(=O)[C@@H]1CCCN1C(=O)[C@@H](O)[C@H](Cc1ccccc1)NC(=O)[C@H](CC(N)=O)NC(=O)OCc1ccccc1,MOLT-4,pNL432(PR-I84V),,PR-I84V,RT activity,20 µM,41%
C=C(C)[C@@H]1CC[C@]2(C(=O)NCCCCCCCC(=O)N[C@@H](CC(C)C)[C@@H](O)CC(=O)O)CC[C@]3(C)[C@H](CC[C@@H]4[C@@]5(C)CC[C@H](O)C(C)(C)[C@@H]5CC[C@]43C)[C@@H]12,HeLa P4 + HeLa,LAI,,GP41-Q39H,syncytia,10 µM,>99%
CN(C(=O)[C@H](Cc1ccccc1)NC(=O)CN1C(=O)NC2(CCCCC2)C1=O)c1ccccc1,,NL4-3,,,fluorescence,20 µM,89%
O=C(NCCc1ccccc1)Nc1nc2ccc(F)cc2s1,MT-4,,,,RT activity,10 µg/mL,16%
NCC1OC(n2cnc3c(N)ncnc32)C(OP(=O)(O)OCC2OC(n3cnc4c(N)ncnc43)C(OP(=O)(O)OCCOCn3cnc4c(N)ncnc43)C2O)C1O,SupT1 + Sup-T1,IIIB,,,syncytia,100 µM,36.2%
NS(=O)(=O)c1ccc(NC(=O)c2ccccc2SSc2ccccc2C(=O)Nc2ccc(S(N)(=O)=O)cc2)cc1,HeLa P4 + HeLa,NL4-3,,,virus yield,10 µM,90%
CC#C[C@]1(O)CC[C@H]2[C@@H]3CCC4=CC(=O)CCC4=C3[C@@H](c3ccc(N(C)C)cc3)C[C@@]21C,CEMx174 + CEM,NL4-3-EGFP,,,GFP,0.5 µM,49.1%
Cc1ccc(-c2ccc3c(c2)C=C(C(=O)Nc2ccc(C[N+](C)(C)C4CCOCC4)cc2)CCC3)cc1,PBMC,Du151 CLADE C,,,p24,1 µM,91.4%
NCC1OC(n2cnc3c(N)ncnc32)C(OP(=O)(O)OCC2OC(n3cnc4c(N)ncnc43)C(OP(=O)(O)OCC3OC(n4cnc5c(N)ncnc54)C(O)C3O)C2O)C1O,SupT1 + Sup-T1,IIIB,,,syncytia,100 µM,23.1%
CC(C)C[C@H](NC(=O)[C@@H](O)[C@H](N)Cc1ccccc1)C(=O)O,HUT78/HIV-1(IIIB) + HUT 78,IIIB,chronic infection,,RT activity,200 µg/mL,19%
CCOC(=O)N1C=CC(C#N)C(C(C)=O)=C1,MOLT-3,IIIB,,,syncytia,50 µM,0%
CC(C)[C@H](NC(=O)[C@H](Cc1ccccc1)C[C@H](O)[C@H](Cc1ccccc1)NC(=O)OC(C)(C)C)C(=O)N[C@@H](Cc1ccccc1)C(=O)N1CCOCC1,PBL,AMS316-23,,,RT activity,1 µM,89%
CC1/C=C/C=C/C=C/C=C/C=C/C=C/C=C/C(OC2OC(C)C(O)C(N)C2O)CC(O)C(C(=O)O)C(O)CC(=O)CC(O)CC(O)CC(O)CC(=O)CCCC(=O)CC(=O)OC1,H9,IIIB,,,p24 / antigen,10 µg/mL,57%
O=C1c2ccccc2C(=O)c2c1cc(S(=O)(=O)O)c(O)c2O,SupT1 + Sup-T1,IIIB,,,cytopathic effect,50 µg/mL,0%
Cc1cc(C#N)cc(C)c1Oc1nc(Nc2ccc(C#N)cc2)nc(N)c1Br,TZM-bl,NL4-3,,,p24 / ELISA / antigen,10 µg/mL,100%
Nc1ncnc2c1ncn2[C@@H]1O[C@H](COP(=O)([O-])O[C@@H]2[C@H](O)[C@@H](COP(=O)([O-])O[C@@H]3[C@H](O)[C@@H](COP([O-])(=S)O[C@@H]4[C@H](O)[C@@H](CO)O[C@H]4n4cnc5c(N)ncnc54)O[C@H]3n3cnc4c(N)ncnc43)O[C@H]2n2cnc3c(N)ncnc32)[C@@H](O)[C@H]1O,PBL,IIIB,,,syncytia,300 µM,1%
Cc1ccc(N(C)C(=O)[C@H](Cc2ccccc2)NC(=O)CN2C(=O)NC3(CCCc4ccccc43)C2=O)cc1,,NL4-3,,,fluorescence,20 µM,41%
COc1ccc(OCC2OC2COC(=O)c2ccc(O)c(OC)c2)cc1,CEM-GFP,,,,GFP / fluorescence,125 µM,25%
O=C(O[C@@H]1[C@H](OC(=O)c2ccccc2)[C@@H](CO)O[C@H]1n1cnc2c(N(C(=O)c3ccccc3)C(=O)c3ccccc3)ncnc21)c1ccccc1,HeLaP4,NL4-3,,,β-galactosidase,10 µM,0%
N=C1Sc2ccccc2C2=NCCCN12,PBMC,96USNG31,,,MTS,1.62 µM,90%
O=C(NCCc1ccccc1)Nc1cnccn1,MT-4,,,,RT activity,100 µg/mL,100%
Cc1ccc(C)c2c1NC(=O)C2CC(=O)N[C@@H](Cc1ccccc1)C(=O)N(C)c1cccc(F)c1,,NL4-3,,,fluorescence,2 µM,0%
N#Cc1csc(NC(=O)NCCc2ccccc2)n1,MT-4,,,,cytopathic effect / XTT,100 µg/mL,0%
CCn1c(C)c(C(=O)O)c(C(=O)O)c1Cc1ccccc1,PBL,IIIB,,,p24 / ELISA,10 µM,5%
Nc1ncnc2c1ncn2COCCOP(=O)([O-])O[C@@H]1[C@H](O)[C@@H](COP(=O)([O-])O[C@@H]2[C@H](O)[C@@H](COP(=O)([O-])O[C@@H]3[C@H](O)[C@@H](CO)O[C@H]3n3cnc4c(NCc5ccccc5)ncnc43)O[C@H]2n2cnc3c(N)ncnc32)O[C@H]1n1cnc2c(N)ncnc21,SupT1 + Sup-T1,,,,p24,100 µM,87%
Cc1ccc(C)c(NS(=O)(=O)c2cc(C(=O)NCc3ccccn3)ccc2Cl)c1,C8166,Clinical isolate,,3TC-resistant,p24,1 µM,90%
Cc1ccc(C)c2c1NC(=O)C2CC(=O)N[C@@H](Cc1ccccc1)C(=O)N(C)c1ccc(F)cc1,,NL4-3,,,fluorescence,20 µM,70%
Nc1ncnc2c1ncn2COCCOP(=O)([O-])O[C@@H]1[C@H](O)[C@@H](COP(=O)([O-])O[C@@H]2[C@H](O)[C@@H](CO)O[C@H]2n2cnc3c(N)ncnc32)O[C@H]1n1cnc2c(N)ncnc21,SupT1 + Sup-T1,,,,syncytia,300 µM,99%

For reference, 4 entries again:

| compound | cells | strain or isolate | setting | changes | method | dose | result |
|---|---|---|---|---|---|---|---|
| CCCCCCCCCC(O)CC(=O)O | HeLa37 |  |  |  | antigen | 70.8 µg/mL | 90% |
| Cc1ccc(N(C)C(=O)[C@H](Cc2ccccc2)NC(=O)Cc2ccc3ccccc3c2)cc1 |  | NL4-3 |  |  | fluorescence | 20 µM | 99% |
| CC(=O)C1=CN(C(=O)OCC(C)C)C=CC1C#N | MOLT-3 | IIIB |  |  | syncytia | 50 µM | 0% |
| NCC1OC(n2cnc3c(N)ncnc32)C(OP(=O)(O)OCC2OC(n3cnc4c(N)ncnc43)C(OP(=O)(O)OCCOCn3cnc4c(N)ncnc43)C2O)C1O | SupT1 + Sup-T1 | IIIB |  |  | syncytia | 100 µM | 36.2% |

Two numbers with a dash give a range or band. Rows are shuffled and stem from different studies. An empty or dashed field is not shown.